For data set [1], the system named is Integrase IN_A (HIV-1 subtype A strain FSU-A). Briefly: fluorescence polarization kinetics. The conditions noted are these: 7.5 mM Mg2+, 100 nM IN, 10 nM DNA, kon 0.24 ± 0.02 min-1; 20 mM HEPES pH 7.2, 10 mM DTT, 7.5 mM MgCl2, 25 C; DRaCALA: 5 nM DNA, 0-500 nM IN, 20 min; recombinant protein; label: 5'-fluorescein on U5B.
The subject of data set [2] is Integrase IN_CRF consensus. Briefly: fluorescence polarization kinetics. As to conditions: 7.5 mM Mg2+, 100 nM IN, 10 nM DNA, kon 0.69 ± 0.09 min-1; 20 mM HEPES pH 7.2, 10 mM DTT, 7.5 mM MgCl2, 25 C; DRaCALA: 5 nM DNA, 0-500 nM IN, 20 min; recombinant protein; label: 5'-fluorescein on U5B. Background: In fluorescence polarisation assays a small probe gives low polarisation when free and higher when bound to something large.

Construct, isoform or probe ends are uncertain for at least one entry.

As to “GTGTGGAAAATCTCTAGCAGT (double strand) [5'-Fl-U5B/U5A duplex]”, the binding result in data set [1] and in data set [2] was “binds” each time.
